Measured values from several laboratories, pooled; numbers as filed in NIAID ChemDB.

Common to all: whole-cell or culture tests; agent: Rhinovirus; measure: inhibition

Two numbers with a dash give a range or band.

| smiles | strain or isolate | cell line | read by | tested at | result |
|---|---|---|---|---|---|
| FC(F)(F)c1cccc(C2CCN(c3ccc(Br)nn3)C2)c1 | 100 serotypes | - | - | 0.117 µg/mL | 53% |
| Cc1cc(-c2ccc(N=Nc3c(N)c(S(=O)(=O)O)cc4cc(S(=O)(=O)O)ccc34)c(C)c2)ccc1N=Nc1c(N)ccc2cc(S(=O)(=O)O)ccc12 | - | Human amnion AV3 cells | cytopathic effect | 10 µg/mL | 0% |
| O=C(O)Cc1csc(/N=C2\SC[C@@H]3Cc4ccccc4CN23)n1 | Serotype 43 | MRC-5 | cytopathic effect | 1.5 µg/mL | 80–100% |
| O=S(=O)([O-])c1ccc(O)c2ccccc12 | - | Human amnion AV3 cells | cytopathic effect | 5 µg/mL | 10% |
| Cc1ccc(Cn2cnc3c(N(C)C)nc(C(F)(F)F)nc32)cc1 | Serotype 21 | M-HELA | plaque count | 8 µM | 40% |
| Cc1cc(CCCCCCCOc2ccc(C3=NCCO3)cc2)on1 | 100 serotypes | - | - | 0.203 µg/mL | 18% |
| Cc1ccc(Cn2cnc3c(N(C)C)nc(C(F)(F)F)nc32)c(C)c1 | Serotype 29 | M-HELA | plaque count | 8 µM | 20% |
| COc1cc(-c2ccc(N=Nc3ccc4c(S(=O)(=O)O)cc(S(=O)(=O)O)c(N)c4c3O)c(OC)c2)ccc1N=Nc1ccc2c(S(=O)(=O)O)cc(S(=O)(=O)O)c(N)c2c1O | - | Human amnion AV3 cells | cytopathic effect | 50 µg/mL | 0% |
| CN(C)c1nc(C(F)(F)F)nc2c1ncn2Cc1cccc(F)c1 | Serotype 5 | M-HELA | plaque count | 8 µM | 34% |
| Cc1cccc(N2CCN(c3ccc(Br)nn3)CC2)c1 | 17 serotypes | - | - | 1.5 µg/mL | 53% |
| N#Cc1cc([N+](=O)[O-])ccc1Oc1ccc(Cl)c(Cl)c1 | TYPE 1A | VERO | - | 1.56 µg/mL | 83% |
| CN(C)c1nc(C(F)(F)F)nc2c1ncn2Cc1ccc(Cl)c(N)c1 | Serotype 31 | M-HELA | plaque count | 8 µM | 29% |
| O=C(Nc1c(S(=O)(=O)[O-])cc2cc(S(=O)(=O)[O-])cc(O)c2c1O)c1ccccc1 | - | Human amnion AV3 cells | cytopathic effect | 5 µg/mL | 5% |
| CN(C)c1ccc(Cn2cnc3c(N(C)C)nc(C(F)(F)F)nc32)cc1 | Serotype 5 | M-HELA | plaque count | 8 µM | 39% |
| Cc1ccc(N2CCC(c3cccc(C(F)(F)F)c3)C2)nn1 | 17 serotypes | - | - | 0.018 µg/mL | 18% |

A second listing of 2 rows from above:

smiles	strain or isolate	cell line	read by	tested at	result
Cc1ccc(N2CCC(c3cccc(C(F)(F)F)c3)C2)nn1	17 serotypes	-	-	0.018 µg/mL	18%
Cc1ccc(Cn2cnc3c(N(C)C)nc(C(F)(F)F)nc32)cc1	Serotype 21	M-HELA	plaque count	8 µM	40%

Neighbouring rows are from separate reports. Inhibition is in % at the dose shown (toxicity tests: loss of growth or viability). Blank or dashed fields: not listed here.